# Screening data, single-dose tests

Measurements from “University of Dundee, Small-Polar-MMV Screening Library” (2021), ChEMBL document CHEMBL3988442.

A: 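Whole-cell growth test on Mycobacterium tuberculosis, read after 4 days in a medium based on cholesterol and the lipid DPPC; the read-out is not stated. Tested at 500 µM. Higher reads as more growth inhibition (inferred: compounds with an IC50 in retests scored well above the rest). About 18,000 compounds were tested under these conditions; 5% (about 900) showed 50% or more at least once.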
B: 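Whole-cell growth test on Mycobacterium tuberculosis, read after 3 days in glucose-containing 7H9 medium; the read-out is not stated. Concentration: 500 µM. Higher reads as more growth inhibition (inferred: compounds with an IC50 in retests scored well above the rest). Of about 18,000 compounds tested this way, about 1,400 (7.9%) reached 50% or more in at least one test.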

Values are the deposited “Percent Effect”, in %. The controls that fix the scale are not given in the record; negative values are as filed. This is part of a subset picked to be rich in strong results. A dash means the value is not listed here; it may have been measured.

With Cc1ccc(S(=O)(=O)NCCS(C)(=O)=O)cc1C the screen gave A: -3.766%.
With Cc1ccn2c(C(=O)N[C@@H]3CC[C@@H](N)C3)c(C)nc2c1 the screen gave B: 39.74%.
With CC(C(=O)Nc1ccc(C#N)cc1)N1CCC(O)CC1 (centres undefined) the screen gave A: 13.39%.
With CC(C)Oc1cc(Br)cc(C(=O)NCCC(N)=O)c1 the screen gave B: 37.26%.
With COCC1CCN(C(=O)C(CN)CC(C)C)CC1 (centres undefined) the screen gave B: 12.94%.
With CCOc1cc(C)ccc1S(N)(=O)=O the screen gave B: 39.48%.
With COC(=O)COc1ccc(C(C)=O)cc1Cl the screen gave A: 58.51%.
With CCC(=O)c1ccc(C(=O)OC)cc1 the screen gave B: 5.202%.
With CC(C)N(C)S(=O)(=O)NCCc1cccs1 the screen gave A: 46.74%; B: 56.77%.
With CN(C(=O)NCc1ccco1)C1(CCO)CCOCC1 the screen gave A: -14.69%; B: -7.004%.
With Cn1cc(-c2csc(N)n2)cn1 the screen gave B: 10%.
With CCN1CCN(C(C)CNC(=O)c2scnc2C)CC1 (centres undefined) the screen gave B: 7.653%.
With COCCNC(C)(CO)C1CCCCC1 (centres undefined) the screen gave B: 1.696%.
With CC(C)N(CC(=O)N1CCCC1)CC(C)(C)O the screen gave A: -2.511%.
With COc1ncccc1CN(C)S(=O)(=O)c1cccs1 the screen gave A: 51.08%; B: 48.34%.
With CCn1cc(N)ccc1=O the screen gave B: -118.3%.
With O=S(=O)(C1CC1)N1CCC(NCc2ccco2)CC1 the screen gave A: -6.869%.
With CC(CS(C)(=O)=O)N(C)C(=O)Cc1ccc(Cl)c(Cl)c1 (centres undefined) the screen gave A: 17.69%; B: 41.78%.
With Nc1nc(CCC(=O)NCc2cn3c(n2)SCC3)cs1 the screen gave B: 0.3351%.
With c1cnn(CCN2CCCCC2Cn2cncn2)c1 (centres undefined) the screen gave B: 2.247%.
With CCCn1nc(C(=O)N2CCC2)c2ccccc2c1=O the screen gave B: 26.44%.
With COc1ccc(CCC(=O)NC2(C#N)CCC2)cc1 the screen gave B: 41.71%.
With CN(Cc1ccco1)C(=O)CN1CCCCC1 the screen gave B: 0.132%.
With N#CCCn1ccc(=O)[nH]c1=O the screen gave B: 6.092%.
With COc1ccc(OCCCN2CCNC(=O)CC2)cc1 the screen gave A: 10.98%; B: 17.41%.
With CC(C)NC(=O)c1ccc(CN2CCCC2)cc1 the screen gave B: 13.53%.
With O=C(NCC(c1ccco1)N1CCCC1)c1cnn[nH]1 (centres undefined) the screen gave B: -1.618%.
With CC1Sc2ccc(C(=O)N(C)C)cc2NC1=O (centres undefined) the screen gave A: 5.484%; B: 5.589%.
With Cc1cc(Cn2c(=O)[nH]c3ccccc3c2=O)no1 the screen gave A: -11.35%; B: -22.05%.
With Cc1ncsc1CCCNC(=O)c1cnccn1 the screen gave B: 54.77%.
With O=C(C1CCC1)N1CCCC1c1cccnc1 (centres undefined) the screen gave A: -8.842%.
With CCOc1ccc(C(=O)NC2(C)CCS(=O)(=O)C2)cn1 (centres undefined) the screen gave B: 19.82%.
With CCC1(C(=O)NCC2CCCNC2)CCCC1 (centres undefined) the screen gave A: -8.143%.

Once more, the final 4:

Compound	A	B
Cc1ncsc1CCCNC(=O)c1cnccn1	-	54.77%
O=C(C1CCC1)N1CCCC1c1cccnc1 (centres undefined)	-8.842%	-
CCOc1ccc(C(=O)NC2(C)CCS(=O)(=O)C2)cn1 (centres undefined)	-	19.82%
CCC1(C(=O)NCC2CCCNC2)CCCC1 (centres undefined)	-8.143%	-